Test results published in patent publication US20240368065A1 (HELMHOLTZ-ZENTRUM FÜR INFEKTIONSFORSCHUNG GMBH, priority 2021, published 2024).

Experiment: CA concentrations in extracted mouse organs (LC-MS/MS)
Format: in vivo, C57BL/6J mice
Details: endogenous levels, compared with the other itaconate isomers

C/C(=C/C(=O)O)C(=O)O [citraconic acid]
Quantification in brain: the only one that could be quantified in brain, albeit at very low levels
